# Laboratory results: PubChem BioAssay AID624099 (ICCB-Longwood, 2012)
# Test: 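Knock-downs relieving repression by E2 of an HPV18 LCR luciferase reporter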 (primary screen)
# Cells: human C33A cervical carcinoma cells (HPV-negative) stably expressing BPV1 E2 and an HPV18 LCR luciferase reporter
# Reagents: siRNA pool against human genes, 40 nM
# Time to read-out: 72 h
# Measured: 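HPV18 LCR reporter light per well, converted to plate-wise z-scores that exclude control wells, and averaged over triplicate plates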
# Scale: mean z-score and z-score: higher = stronger reporter signal, weaker E2 silencing
# Active means: 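Hit if mean z-score reaches 2 and two or more of three replicate z-scores also reach 2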
# The deposit covers about 21,000 reagents; this is a part drawn at random. 497 of all reagents (2.4%) count as active. 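Higher z means weaker E2 silencing; only reporter increases were scored, and knock-downs that hurt cell survival may mask genuine repressor factors.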 Reagents against one gene are numbered here.
Target gene,reagent,mean z-score,"z-score, replicate A","z-score, replicate B","z-score, replicate C",outcome
ANXA8L1,1,-1.32,-1.14,-1.3,-1.51,inactive
CMTR2,1,-0.9,-0.99,-1.01,-0.7,inactive
MAP3K1,1,0.47,0.23,0.5,0.67,inactive
CYB5B,1,-0.1,0.33,-0.08,-0.56,inactive
OR8B4,1,-0.19,-0.26,-0.22,-0.1,inactive
TRAPPC2,1,0.82,0.73,0.77,0.96,inactive
RDH5,1,0.77,1.03,0.65,0.63,inactive
ZFY,1,1.73,1.71,1.3,2.18,inactive
FSCN3,1,0.8,1.02,0.6,0.78,inactive
GABRA6,1,-1.35,-1.33,-1.39,-1.34,inactive
ULK2,1,-0.95,-1,-1.04,-0.82,inactive
KBTBD11,1,-0.11,0.09,-0.21,-0.23,inactive
LMBRD1,1,-0.09,0.03,-0.1,-0.2,inactive
RRM2B,1,-0.06,0.15,0.07,-0.39,inactive
MAP1B,1,2.27,2.13,2.43,2.26,active
PHAF1,1,-0.53,-0.85,-0.18,-0.55,inactive
TSPAN12,1,-0.11,-0.49,0,0.15,inactive
HDHD5,1,2.19,1.88,2.3,2.41,active
CNR1,1,0.74,0.72,0.95,0.53,inactive
CRYBA4,1,-0.54,-0.53,-0.51,-0.58,inactive
LOC388436,1,1.21,1.01,1.35,1.28,inactive
KCTD18,1,0.81,1.03,0.67,0.73,inactive
RBPJL,1,0.06,0.1,0.1,-0.02,inactive
FAU,1,-2.92,-3.1,-2.87,-2.81,inactive
MYH1,1,-0.89,-0.74,-1.34,-0.6,inactive
LONRF3,1,-0.48,-0.52,-0.39,-0.52,inactive
FBXO36,1,-0.73,-0.84,-0.46,-0.89,inactive
PKP2,1,-0.65,-0.71,-0.8,-0.45,inactive
ADH7,1,0.72,0.8,0.67,0.68,inactive
RAB12,1,-1.29,-1.96,-1.11,-0.82,inactive
MRPL17,1,1.16,0.8,1.12,1.56,inactive
ALOX15B,1,-0.53,-0.79,-0.32,-0.48,inactive
KNOP1,1,0.41,0.24,0.56,0.44,inactive
RASAL1,1,0.2,0.1,0.61,-0.11,inactive
LOC388278 (retired record),1,-0.54,-0.81,-0.68,-0.15,inactive
KRT85,1,1.42,1.65,1.32,1.28,inactive
H1-1,1,-1.36,-1.55,-1.21,-1.3,inactive
NDUFS4,1,-0.24,-0.43,-0.7,0.41,inactive
PWWP2A,1,-1.12,-1.33,-0.74,-1.28,inactive
AKAP6,1,0.5,0.41,0.54,0.57,inactive
UNQ9370 (retired record),1,-0.31,-0.36,-0.24,-0.32,inactive
PDGFRB,1,0.41,0.36,0.35,0.53,inactive
LRRC7,1,-1.24,-0.85,-1.16,-1.72,inactive
BOP1,1,-0.55,-0.4,-0.56,-0.69,inactive
MARVELD2,1,-0.63,-0.72,-0.19,-0.97,inactive
N4BP2L2,1,0.27,0.09,0.07,0.63,inactive
N4BP2L2,2,0.56,0.43,0.62,0.63,inactive
FAM219B,1,-0.67,-0.58,-0.85,-0.59,inactive
MN1,1,0,-0.1,0.04,0.07,inactive
KRT33B,1,0.53,0.43,0.81,0.35,inactive
ANGPT2,1,0.78,0.88,0.65,0.8,inactive
SMARCD1,1,-0.77,-0.68,-0.79,-0.82,inactive
RAF1,1,-0.11,0.03,-0.3,-0.05,inactive
SFT2D3,1,-0.07,0.27,-0.45,-0.03,inactive
PRELID3A,1,-0.58,-0.56,-0.79,-0.4,inactive
LINC00298,1,-0.81,-1.02,-0.87,-0.53,inactive
CDCA5,1,-1.89,-1.84,-1.92,-1.93,inactive
CDCA5,2,0.31,-0.26,0.56,0.63,inactive

Targets above whose target name begins with P or p (5):
Target gene,reagent,mean z-score,"z-score, replicate A","z-score, replicate B","z-score, replicate C",outcome
PHAF1,1,-0.53,-0.85,-0.18,-0.55,inactive
PKP2,1,-0.65,-0.71,-0.8,-0.45,inactive
PWWP2A,1,-1.12,-1.33,-0.74,-1.28,inactive
PDGFRB,1,0.41,0.36,0.35,0.53,inactive
PRELID3A,1,-0.58,-0.56,-0.79,-0.4,inactive
